Measured values from several laboratories, pooled; numbers as filed in NIAID ChemDB.

All rows: host cell toxicity; read-out: CC50

Conditions beyond the fields shown may differ between rows. An empty or dashed field is not shown. CCn: concentration that lowers growth or viability of the cells by n%.

smiles,method,cell line,value
CCOC(=O)c1c(O)c2c(-c3cccc(Br)c3)ccnc2n(O)c1=O,,HeLa,<100 µM
O=C(NCCc1cccc(-n2cnc3ccccc32)n1)NCc1ccc(Cl)c(Cl)c1,,PBMC,50 µM
CC[C@@H](CCC[C@@H](CO)N(CCC(C)C)S(=O)(=O)c1ccc(N)cc1)NC(=O)C1(NC(=O)OC(C)(C)C)C[C@@H]1c1ccccc1,microscopy,T lymphoid cells,>10 µM
CCOC(=O)COc1ccc(CN(C(=O)c2ccc(-c3ccc4c(c3)OCO4)cc2)C(C)C)cc1,,BJ,>20 µM
COC(=O)N[C@H](C(=O)N[C@H](CCC[C@@H](CO)N(CC(C)C)S(=O)(=O)c1ccc(CO)cc1)C1CC1)C(c1ccc(F)cc1)c1ccc(F)cc1,microscopy,T lymphoid cells,>10 µM
O=C(NCc1ccc(F)cc1)c1nc2n(c(=O)c1O)CCNC2,microscopy,MT-4,>1 µM
COc1cnc(-c2nn[nH]n2)c2[nH]cc(C(=O)C(=O)N3CCN(C(=O)c4ccccc4)CC3)c12,trypan blue,HeLa,>100 µM
CCOC(=O)CCCCCOc1cccc(CN(C(=O)c2ccc(-c3ccc4c(c3)OCO4)cc2)C(C)C)c1,,BJ,>20 µM
O=C(Nc1cc(C(F)(F)F)ccc1N1CCCCC1)c1ccncc1,MTS,Huh7/Rep-Feo-2a,>30 µM
CC(C)C[C@@H]1NC(=O)[C@H](Cc2ccc(O)cc2)NC(=O)[C@@H](CCCCN)NC(=O)[C@H](CC(N)=O)NC(=O)[C@H](C(C)C)NC(=O)[C@@H](CC(C)C)NC1=O,MTT,Lung carcinoma cells,>30 µM
C[C@@H]1CN(C(=O)c2ccccc2)CCN1C(=O)C(=O)c1c[nH]c2c(-n3cccn3)ncc(Br)c12,trypan blue,HeLa,>100 µM
S=C(NCCCCc1ccccc1)Nc1ccc2c(c1)Cc1cc(Br)ccc1-2,MTS,Ava5-EG(delta4AB)SEAP,>1 µM
OC[C@H]1O[C@@H](n2c(Br)nc3cc(Cl)c(Cl)cc32)[C@H](O)[C@@H]1O,,BFU-E,90 µM
Nc1nc(=O)n([C@H]2C[C@H](O)[C@@H](CO)O2)cc1/C=C/Cl,cell count,OMK,278 µM
COC(=O)N[C@H](C(=O)N[C@H](CCC[C@@H](CO)N(CCC(C)C)S(=O)(=O)c1ccc(CO)cc1)C1CC1)C(c1ccccc1)c1ccccc1,microscopy,T lymphoid cells,>10 µM
COc1cnc(-c2ncon2)c2[nH]cc(C(=O)C(=O)N3CCN(C(=O)c4ccccc4)CC3)c12,trypan blue,HeLa,>100 µM
COC(=O)N[C@H](C(=O)NC1(CCCC(CO)N(CCC(C)C)S(=O)(=O)c2ccc(N)cc2)CCC1)C(c1ccccc1)c1ccccc1,microscopy,T lymphoid cells,>10 µM
CN1CCN(S(=O)(=O)N(C)C2COCCn3c2nc(C(=O)NCc2ccc(F)cc2)c(O)c3=O)CC1,microscopy,MT-4,>1 µM
Nc1nc(=O)c2ncn([C@@H]3O[C@H](CO)[C@@H](O)[C@H]3O)c2c(=O)[nH]1,,Daudi dividing cells,>50 µM
CN(C)CC1c2nc(C(=O)NCc3ccc(F)cc3)c(O)c(=O)n2CCN1Cc1ccn(C)n1,microscopy,MT-4,>10 µM
COc1ccc2nc3cc(Cl)ccc3c(NCCCCNC(=O)[C@@H]3CCCN3)c2c1,MTS,KB cells,0.115 µM
Nc1nc(-c2ccc(NC(=O)CNCc3ccccn3)cc2)cs1,,HS68,>84 µM
CC1(C)c2nc(C(=O)NCc3ccc(F)cc3)c(O)c(=O)n2CCN1CC(=O)O,microscopy,MT-4,>1 µM
COc1ccc2nc3cc(Cl)ccc3c(NCCCCN3CCNCC3)c2c1,MTS,KB cells,0.125 µM
CN1C(=O)c2c(c3cccnc3n(O)c2=O)NC1c1ccccc1-c1ccccc1,,HeLa,<100 µM
CCOC(=O)CCCCCOc1cccc(CN(C(=O)c2ccc(-c3cccc(C(C)=O)c3)cc2)C(C)C)c1,,BJ,>20 µM
COc1ccc2nc3cc(Cl)ccc3c(NCCN3CCNCC3)c2c1,MTS,MRC-5 cells,0.28 µM
COc1ccc(C[C@H](N)C(=O)N[C@H]2[C@@H](O)[C@H](n3cnc4c(N(C)C)ncnc43)O[C@@H]2CO)cc1,WST,HEPG2 (HB-8065),0.24 µg/mL
COC(=O)N[C@H](C(=O)N[C@H](CCC[C@@H](CO)N(CCC(C)C)S(=O)(=O)c1ccc(N)cc1)C(C)C)C(c1ccccc1)c1ccccc1,microscopy,T lymphoid cells,>10 µM
C[C@H](NCC(=O)Nc1ccc(-c2csc(N)n2)cc1)c1ccccc1,,HS68,>30 µM
O=c1[nH]c(=O)n([C@H]2C[C@H](O)[C@@H](CO)O2)cc1/C=C/Br,cell count,OMK,>900 µM
O=c1c(-c2ccccc2)c(O)c2cc(-c3ccccc3)cnc2n1O,,HeLa,<100 µM
NC(=S)Nc1ccc(OCCCCCc2ccccc2)cc1,MTS,Ava5-EG(delta4AB)SEAP,>1 µM
C[C@@H]1CN(C(=O)C(=O)c2c[nH]c3c(-n4nc5ccccc5n4)cc(Cl)nc23)CCN1C(=O)c1ccccc1,trypan blue,HeLa,>100 µM
Nc1nc2c(ncn2CCC(CO)CO)c(=O)[nH]1,cell count,RF,170 µM
CO/C=C1\C[C@H](/C=C/c2ccccc2)OC1=O,,HeLa S3,>50 µg/mL
NC(=O)c1ncc(F)c2c(C(=O)C(=O)N3CCN(C(=O)c4ccccc4)CC3)c[nH]c12,trypan blue,HeLa,>100 µM
Cc1cc(C2CC2)n2nc(S(=O)(=O)Nc3ccccc3C(F)(F)F)nc2n1,WST,K562 (CRL-1573),>128 µg/mL
CC(C)C[C@@H]1NC(=O)[C@H](Cc2c[nH]c3ccccc23)NC(=O)[C@@H](CCCCN)NC(=O)[C@H](CC(N)=O)NC(=O)[C@H](C(C)C)NC(=O)[C@@H](CC(C)C)NC1=O,MTT,Colorectal carcinoma,>30 µM
Cc1ccc(NC(=O)NCCc2ccc3c(n2)NCCC3)cn1,,PBMC,50 µM
CN(CCc1ccccn1)C(=O)Nc1ccc(-c2csc(N)n2)cc1,,HS68,<144 µM
O=C(NCCc1ccc2c(n1)NCCC2)NCC1(c2ccccc2)CC1,,PBMC,16 µM
CN1CCn2c(nc(C(=O)NCc3ccc(F)cc3)c(O)c2=O)C(N(C)C(=O)C(=O)N(C)C)C1,microscopy,MT-4,>1 µM
O=c1cc(N2CCc3ccc(-c4cccnc4)cc3C2)c2cccnc2n1O,,HeLa,0.17 µM
CO/C=C(/C(=O)OC)[C@H](C)[C@@H](O)/C=C/c1ccccc1,,HL-60,>100 µg/mL
O=c1[nH]c(=O)n([C@H]2C[C@H](O)[C@@H](CO)O2)cc1I,cell count,OMK,133 µM
CN(C)c1ccc2c(c1)Cc1cc(NC(N)=S)ccc1-2,MTS,Ava5-EG(delta4AB)SEAP,>1 µM
CCc1nc(CCC(=O)O)cnc1CCC(=O)O,MTT,SW-480,>40 µg/mL
COc1ccc(OCCCCCOc2cccc(NC(N)=S)c2)c2ccccc12,MTS,Ava5-EG(delta4AB)SEAP,>1 µM
C[C@@H]1C[C@@H](O)c2c(O[C@H]3O[C@H](CO)[C@@H](O)[C@H]3O)cccc2O1,MTT,SMMC-7721,>40 µg/mL
NC(=S)Nc1cccc(OCCCCCOc2ccc(-c3ccccc3)cc2)c1,MTS,Ava5-EG(delta4AB)SEAP,>1 µM
CCCCC(=O)OC1CC(OC(C)C(C)C(O)C(C)C(O)C(C)C2OC(=O)/C=C/CC(O)CC(O)CC(O)CCC(C)C(O)C[C@@]3(O)O[C@H](CC(O)CC(OC(=O)CC(=O)O)CCCC(O)C4OC4C2C)C[C@H](O)[C@H]3O)OC(C)C1O,,COS 1,>100 µg/mL
Cc1cc(C2CC2)n2nc(S(=O)(=O)Nc3c(C)ccc(Cl)c3C)nc2n1,WST,K562 (CRL-1573),90 µg/mL
CCNC(=S)Nc1ccc2c(c1)Cc1cc(Br)ccc1-2,MTS,Ava5-EG(delta4AB)SEAP,>1 µM
CN[C@H](C(=O)N[C@H](CCC[C@@H](CO)N(CCC(C)C)S(=O)(=O)c1ccc(CO)cc1)C1CC1)C(c1ccccc1)c1ccccc1,microscopy,T lymphoid cells,>10 µM
COc1ccc2nc3cc(Cl)ccc3c(NCCNC(=O)[C@@H](N)Cc3cnc[nH]3)c2c1,MTS,MRC-5 cells,5.86 µM
Cc1cc(C2CC2)n2nc(S(=O)(=O)Nc3c(Br)cccc3Br)nc2n1,WST,HEPG2 (HB-8065),>128 µg/mL
CC(C)C[C@@H]1NC(=O)[C@H](Cc2c[nH]c3ccccc23)NC(=O)[C@@H](CCCCN)NC(=O)[C@H](CC(N)=O)NC(=O)[C@H](CC(C)C)NC(=O)[C@@H](CC(C)C)NC1=O,MTT,Lung carcinoma cells,>30 µM
CCOC(=O)CCCCCOc1cccc(CN(C(=O)c2ccc(-c3cccc(OC)c3)cc2)C(C)C)c1,,HEK 293,>20 µM
O=C(NCCc1ccc2c(n1)NCCC2)Nc1ccc(OC(F)F)cc1,,PBMC,1.9 µM
Nc1nc(-c2ccc(NC(=O)NCCc3ccc(F)cc3)cc2)cs1,,HS68,<5 µM
CC(C)C[C@@H]1NC(=O)[C@@H](CC(C)C)NC(=O)[C@H](Cc2c[nH]c3ccccc23)NC(=O)CNC(=O)[C@H](CC(N)=O)NC(=O)[C@@H](C(C)C)NC1=O,MTT,Colorectal carcinoma,>30 µM
O=C(NCCc1ccc2c(n1)NCCC2)Nc1c(Cl)cccc1C(F)(F)F,,PBMC,50 µM
CC(C)Nc1nc2cc(Cl)c(Cl)cc2n1[C@H]1O[C@@H](CO)[C@H](O)[C@@H]1O,,BFU-E,88 µM
O=C(NCc1ccc(F)cc1)c1nc2n(c(=O)c1O)CN1CCSC21,microscopy,MT-4,>1 µM
O=C(C(=O)N1CCN(C(=O)c2ccc(Br)o2)CC1)c1c[nH]c2c(-c3nn[nH]n3)ncc(Cl)c12,trypan blue,HeLa,>100 µM

Again, the opening 6 rows:

smiles | method | cell line | value
CCOC(=O)c1c(O)c2c(-c3cccc(Br)c3)ccnc2n(O)c1=O |  | HeLa | <100 µM
O=C(NCCc1cccc(-n2cnc3ccccc32)n1)NCc1ccc(Cl)c(Cl)c1 |  | PBMC | 50 µM
CC[C@@H](CCC[C@@H](CO)N(CCC(C)C)S(=O)(=O)c1ccc(N)cc1)NC(=O)C1(NC(=O)OC(C)(C)C)C[C@@H]1c1ccccc1 | microscopy | T lymphoid cells | >10 µM
CCOC(=O)COc1ccc(CN(C(=O)c2ccc(-c3ccc4c(c3)OCO4)cc2)C(C)C)cc1 |  | BJ | >20 µM
COC(=O)N[C@H](C(=O)N[C@H](CCC[C@@H](CO)N(CC(C)C)S(=O)(=O)c1ccc(CO)cc1)C1CC1)C(c1ccc(F)cc1)c1ccc(F)cc1 | microscopy | T lymphoid cells | >10 µM
O=C(NCc1ccc(F)cc1)c1nc2n(c(=O)c1O)CCNC2 | microscopy | MT-4 | >1 µM